Measurements: paper PMC3595261

Assays:
Experiment in all cases: EMSA
[1] = test system: VicR (rVicR) + CovR (rCovR); conditions: co-binding, increased retardation, VicR buffer; 25 C, 60 min, 25 ul, ~0.6 fmol DNA. CovR (0-30 pmol): 20 mM Hepes pH 7.6, 1 mM EDTA, 10 mM (NH4)2SO4, 1 mM DTT, 0.2% Tween 20, 30 mM KCl, poly L-lysine 5 ng/ul; recombinant protein; label: DIG end label or unlabeled (gel stain); probe letters rebuilt from the primers and the genome
VicR (rVicR) = conditions: 25 C, 60 min, 25 ul, ~0.6 fmol DNA. CovR (0-30 pmol): 20 mM Hepes pH 7.6, 1 mM EDTA, 10 mM (NH4)2SO4, 1 mM DTT, 0.2% Tween 20, 30 mM KCl, poly L-lysine 5 ng/ul; recombinant protein; residues 1-235; protein details: His-tag (pET-22b, NcoI-XhoI); label: DIG end label or unlabeled (gel stain); probe letters rebuilt from the primers and the genome
CovR (rCovR) = CovR (rCovR) (UniProt I6L8Z3); conditions: 25 C, 60 min, 25 ul, ~0.6 fmol DNA. CovR (0-30 pmol): 20 mM Hepes pH 7.6, 1 mM EDTA, 10 mM (NH4)2SO4, 1 mM DTT, 0.2% Tween 20, 30 mM KCl, poly L-lysine 5 ng/ul; recombinant protein; residues 1-230; protein details: His-tag (pET-22b, NcoI-XhoI); label: DIG end label or unlabeled (gel stain); probe letters rebuilt from the primers and the genome

Sequence: ACAGCTTGGCTATTGTTGGTATTTGTTTGCTTGGTTTTATTTTATTTTTATTAAAAAAATGAGAAAATACTTCGATTCTATTAGAAGTCAATTTTTTTCAGATAAATAAGGAATTACTTTTCTTAAAAGGAAAAGAAGGCATTTACTTTTTCTAATCACAACTTAATTGTAATATTTTTAATACTACTCTAAAAAGCAAGTAATATAACTACTGTATCATGTATATATAATTTGTTTAAAGGAGTAACCAATGTCTATTAAAAATATTTTAGAAAACAAAACAACAACAATTAAAGTTAGTTTTGCAGGAATTGCA (double strand) [lysM promoter]
- binding result [1]: binds
- binding result (VicR (rVicR)): binds
- binding result (CovR (rCovR)): binds

Sequence: GCTTCCGAACATTGATCTTATTAATATTTTAACAATAAAAGGTTAGGACAAAAGTCCTGCCTTTTTCAAATATATTAGGCATAGTAGCTTGAAGTCAGACTGCTTAACTTTCTATTTTTGTCGATATGCTCTTAATTGTATTCATTTTTTACAGAAATGTAAAAAAAATGTGTCCATAATAAAATTAAATCATGATAAACTATATTATTATTTTAATGACATTAAAATAATAATAATTTATTTATGAGAGGAAAAAATGGAACAGAAGATTTTTAGCAAACGAAAAAGTAAGATTGCTGGGCTTTGTGGAGCTATTTTAACGAC (double strand) [wapE promoter]
- binding result (VicR (rVicR)): binds
- binding result (CovR (rCovR)): binds

Sequence: TTGTACCAAAGACAAGCATAACTTTAATCTTTTTCATGTTCCCTCTTCATGATAAATTGAAATTAATGTAAAGCCAAATGATACATCTTTGTCATAATAGCATTATTTCATTACATTTTCAATACAAAATACTTTGATTTTTTTAAAAAACTTTTCCTTTATTTTATAATTATATTAAAAACACTCTTTTTTCACAAGAGCGTCCAAGGATAAAAATCATTACTAAATAAGTATTTGGCAAGCTTTAGAATTTTATCATTTTAGTTTAATGAGATAAAAAATTAATCAAGAGACTGTTTCGTATATGTCAA (double strand) [epsC promoter]
- binding result (CovR (rCovR)): binds
